Anti-infective test results gathered from many reports (values: NIAID ChemDB through PubChem).

Shared fields: whole-cell or culture tests; organism: Mycobacterium tuberculosis

Blank or dashed fields: not listed here. Percent inhibition refers to the dose given; in toxicity tests it is the harm to the cells. MIC50, MIC90 and the like: level of inhibition, or share of isolates inhibited. MIC bound comes from a single tested concentration. Lines come from different laboratories, so protocols vary. ECn is the concentration giving n% inhibition of infection, replication or growth.

compound,dose,read-out,method,changes,strain or isolate,result
CC1CC(C)(C)NCCNC(C)CC(C)(C)NCCN1,6.25 µg/mL,inhibition,resazurin,,H37Rv,-2%
Cc1nc2scc(-c3ccco3)c2c(=O)n1NC(=O)c1cccs1,,MIC,,,CNCTC MY331/88,106 µM
CCOC(=O)c1ccc(-c2ccc(Br)cc2)nc1C,,MIC,,,H37Rv,25 µg/mL
CO[C@H]1/C=C/O[C@@]2(C)Oc3c(C)c(O)c4c(O)c(c(/C=N/N5CCN(C)CC5)c(O)c4c3C2=O)NC(=O)/C(C)=C\C=C\[C@H](C)[C@H](O)[C@@H](C)[C@@H](O)[C@@H](C)[C@H](OC(C)=O)[C@@H]1C,,MIC,,,H37Rv,0.015 µg/mL
CC1COc2c(N3CCN(C)CC3)c(F)cc3c(=O)c(C(=O)O)cn1c23,,MIC90,,,ATCC 27294,3 µM
COc1cccc(/C=N/N=C(\N)c2ccncc2)c1OC,,MIC,,,1481,>256 µg/mL
Cc1nc2scc(-c3ccco3)c2c(=O)n1/N=C/C1CCCCC1,,MIC,,,CNCTC MY331/88,62 µM
Fc1ccccc1-c1c(C(c2ccccc2)n2ccnc2)cnn1-c1ccccc1,,MIC90,,,ATCC 35822 (isoniazid-resistant),≥100 µM
COc1cc([C@H]2OC[C@]3(O)[C@@H](c4ccc(O)c(OC)c4)OC[C@]23O)ccc1O,,MIC,,,H37Rv,>128 µg/mL
CCOC(=O)c1ccc(-c2ccc([N+](=O)[O-])cc2)nc1C,,MIC,,,H37Rv,25 µg/mL
C=C1C(=O)[C@@]23CC[C@H]4C(C)(CCC[C@@]4(C)C(=O)OC)[C@@H]2CC[C@]1(O)C3,,MIC,,,RMP-R,6.3 µg/mL
Clc1ccc(-n2ncc(C(c3ccccc3)n3ccnc3)c2-c2ccccc2)c(Cl)c1,,MIC50,,,ATCC 27294,11.7 µM
[O-][n+]1ccccc1SSc1cccc[n+]1[O-],,MIC90,resazurin,,NRP,<0.039 µg/mL
NNC(=O)c1ccncc1,,MIC,resazurin,DG167-resistant,DRM167 32x2,0.19 µM
COc1ccc(Cc2c(C)c(C#N)c3[nH]c4ccccc4n3c2=O)cc1,,MIC90,resazurin,,H37Rv,0.25 µg/mL
C[C@H]1[C@H](C)CC[C@]2(C(=O)O)CC[C@]3(C)C(=CC[C@@H]4[C@@]5(C)CC[C@H](O)C(C)(C)[C@@H]5CC[C@]43C)[C@H]12,,MIC,,,H37Rv,41.9 µg/mL
CCOc1ccc(C2=NN(CC)C(=O)C(C3C(=O)N(c4ccccc4)N=C3C)C2)cc1,,MIC bound,resazurin,,H37Rv,>6.25 µg/mL
N/C(=N\N=C\c1cccc(Br)c1)c1ccncc1,,MIC,,,H37Rv,16 µg/mL
CC(C)=CCC1C(=O)C(CC=C(C)C)(CC=C(C)C)C(O)C(C(=O)C(C)C)C1O,,MIC,,,Isolate M,35.5 µg/mL
CO[C@H]1/C=C/O[C@@]2(C)Oc3c(C)c(O)c4c(O)c(c(/C=N/N5CCN(C)CC5)c(O)c4c3C2=O)NC(=O)/C(C)=C\C=C\[C@H](C)[C@H](O)[C@@H](C)[C@@H](O)[C@@H](C)[C@H](OC(C)=O)[C@@H]1C,,MIC90,,,ATCC 35828 (pyrazinamide-resistant),1.1 µM
COC1=CC(=O)C=C(OC)C1=O,128 µg/mL,inhibition,BACTEC,,H37Rv,86%
CCn1cc(C(=O)O)c(=O)c2cc(F)c(-n3cccc3)cc21,,MIC90,,,64 strains,16 µg/mL
C=C(C)[C@@H]1CC[C@]2(C(=O)O)CC[C@]3(C)C(CCC4[C@@]5(C)CC[C@H](O)C(C)(C)C5CC[C@]43C)C12,,MIC,,,H37Rv,62.1 µg/mL
CCNCC1CCN(c2c(F)cc3c(=O)c(C(=O)O)cn(CC)c3c2F)C1,,MIC90,,,64 strains,2 µg/mL
Cc1ccc(-c2ccc3c(n2)CC(C)(C)CC3=O)cc1,,MIC,,,H37Rv,>25 µg/mL
NNC(=O)c1ccncc1,,MIC50,,,ATCC 35820 (streptomycin-resistant),0.07 µM
OCCNCCN=C1CCC(=NCCNCCO)CC1,,MIC bound,BACTEC,,H37Rv,>12.5 µg/mL
COc1cc(/C=C/C(=O)O)ccc1O,,MIC,,,H37Rv,>128 µg/mL
O=S(=O)(SC1=NCCN1)c1ccccc1,6.25 µg/mL,inhibition,BACTEC,,H37Rv,16%
O=C(Nc1ccccc1)N1CCc2c(c(-c3ccccc3)nn2Cc2cn(-c3ccccc3)nn2)C1,,MIC,visual reading,,H37Rv,105 µM
FC(F)(F)c1cc(NCCCNc2cc(C(F)(F)F)nc3c(C(F)(F)F)cccc23)c2cccc(C(F)(F)F)c2n1,6.25 µg/mL,inhibition,,,H37Rv,10%
CC(=O)N1C(=O)C2(NCCCN2)c2ccccc21,,MIC,BACTEC,,H37Rv,≥12.8 µg/mL
Cc1nc2scc(-c3ccco3)c2c(=O)n1/N=C/c1ccc(F)cc1F,,MIC,,,CNCTC MY331/88,4 µM
CCCc1cc(=O)oc2c(C(=O)CC)c(OCC)c3c(c12)OC(C)(C)C=C3,,MIC,,,H37Ra,>128 µg/mL
C=C(C)[C@@H]1CC[C@]2(CO)CC[C@]3(C)C(CCC4[C@@]5(C)CC[C@H](O)C(C)(C)C5CC[C@]43C)C12,,MIC,,,H37Rv,30 µg/mL
N=C1C=C(N)C(=O)c2[nH]c(=O)ccc21,12.5 µg/mL,inhibition,BACTEC,,H37Rv,93%
CCCc1cc(=O)oc2c(C(=O)CC)c(OC)cc(O)c12,,MIC,,,H37Ra,>128 µg/mL
[N-]=[N+]=NC(CCl)c1cn(COC(CO)CO)c(=O)[nH]c1=O,,EC50,,,H37Ra,>100 µg/mL
O=C(Nc1ccccc1)N1CCc2c(c(-c3ccccc3)nn2Cc2cn(-c3ccccc3Cl)nn2)C1,,MIC,visual reading,,H37Rv,196 µM
COC(=O)C1=C2Nc3ccccc3[C@@]23CCN2C[C@]4(CC5C[C@]67CC(=O)O[C@H]6CCN6CC[C@@H](C67)[C@@]5(O)N(c5ccccc5OC)C4)[C@@H]4OCC[C@]4(C1)C23,,MIC90,resazurin,,H37Rv,>50 µg/mL
CN1N=C(c2ccncc2)OC1c1cccc(C(F)(F)F)c1,,MIC,,,16PI,5 µg/mL
NC(=S)N/N=C/c1ccc([N+](=O)[O-])o1,6.25 µg/mL,inhibition,resazurin,,H37Rv,88%
COc1cc2c(cc1O)-c1cc(O)c(OC)c(OC)c1C=CC2,,MIC,,,H37Rv,25 µg/mL
COc1c2c(cc3c1C1Oc4c(ccc(O)c4CC=C(C)C)C1CO3)OC(C)(C)C=C2,,MIC,,,H37Rv,12.5 µg/mL
FC(F)(F)c1cc(NCCCCCCCNc2cc(C(F)(F)F)nc3c(C(F)(F)F)cccc23)c2cccc(C(F)(F)F)c2n1,6.25 µg/mL,inhibition,,,H37Rv,78%
N/C(=N\N=C\c1ccc(Cl)c(Cl)c1)c1ccncc1,,MIC,,,1054,256 µg/mL
CCCc1cc(=O)oc2c(C(O)CC)c(OC(C)C)cc(OC(C)C)c12,,MIC,,,H37Ra,>128 µg/mL
FC(F)(F)c1cc(NCCN2CCCCC2)c2cccc(C(F)(F)F)c2n1,6.25 µg/mL,inhibition,,,H37Rv,98%
Cc1ccc(/C=N/N=C(\N)c2ccncc2)c(C)c1,,MIC,,,1342,8 µg/mL
O=c1ccn(COCCO)c(=O)[nH]1,,EC50,,,H37Ra,>100 µg/mL
C=CCOc1c2c(c3c(CCC)cc(=O)oc3c1C(=O)CC)OC(C)(C)CC2,,MIC,,,H37Ra,>128 µg/mL
NC(=O)c1ccc(N=N[O-])nc1.[Na+],,MIC bound,BACTEC,,H37Rv,>12.5 µg/mL
COc1ccccc1/C=N/N=C(\N)c1ccncc1,,MIC,,,H37Rv,64 µg/mL
CCn1cc(C(=O)O)c(=O)c2cc(F)c(N3CCNCC3)nc21,,MIC90,,,64 strains,4 µg/mL
CCOC(=O)/C=C1\SC(N2CCCCC2)C(=O)N1CC,12.5 µg/mL,inhibition,BACTEC,,H37Rv,5%
CN[C@@H]1[C@H](O[C@H]2[C@H](O[C@H]3[C@H](O)[C@@H](O)[C@H](N=C(N)N)[C@@H](O)[C@@H]3N=C(N)N)O[C@@H](C)[C@]2(O)C=O)O[C@@H](CO)[C@H](O)[C@H]1O,,MIC,,,Isolate H,>2 µg/mL
Fc1ccc(-c2c(C(c3ccccc3)n3ccnc3)cnn2-c2ccc(F)cc2)cc1,,MIC90,,,ATCC 35822 (isoniazid-resistant),≥100 µM
C=C(C)[C@@H]1CC[C@]2(C)CC[C@]3(C)[C@H](CC[C@@H]4[C@@]5(C)CC[C@@H](O)C(C)(C)[C@@H]5CC[C@]43C)[C@@H]12,,MIC90,resazurin,,H37Rv,>20 µg/mL
O=C(NNC(=O)c1ccc2ccccc2n1)c1ccc2ccccc2n1,12.5 µg/mL,inhibition,BACTEC,,H37Rv,69%
CCC1CN(c2c(F)cc3c(=O)c(C(=O)O)cn(C4CC4)c3c2OC)CCN1,,MIC,,,Isolate TN5702,0.4 µg/mL
C=CCOc1cc(O)c2c(CCC)cc(=O)oc2c1C(=O)CC,,MIC,,,H37Ra,>128 µg/mL
FC(F)(F)c1cc(NCCCCCNc2cc(C(F)(F)F)nc3c(C(F)(F)F)cccc23)c2cccc(C(F)(F)F)c2n1,,MIC,,,H37Rv,>6.25 µg/mL
CC(=O)Oc1c(C)c2c(O)c3c1C1=C(OCOC1=C(C)C3=O)/C(C)=C/[C@@](C)(O)[C@H](O)[C@@H](C)[C@@H](O)[C@H](C(=O)O)[C@H](O)[C@H](C)C(O)[C@H](C)/C=C\C=C(/C)C(=O)N2,,MIC,BACTEC,,H37Rv,3.2 µg/mL
O=C(Nc1ccccc1)N1CCc2c(c(-c3ccccc3)nn2Cc2cn(-c3ccc([N+](=O)[O-])cc3)nn2)C1,,MIC,visual reading,,H37Rv,192.1 µM
C[C@@H]1CC[C@]2(C(=O)O)CC[C@]3(C)C(=CCC4[C@@]5(C)CC[C@H](O)[C@](C)(CO)C5CC[C@]43C)C2[C@H]1C,,MIC,,,H37Rv,15.5 µg/mL
N#Cc1ccc(/C=N/N=C(\N)c2ccncc2)cc1,,MIC,,,H37Rv,256 µg/mL
Cc1c(N)nc([C@H](CC(N)=O)NC[C@@H](N)C(N)=O)nc1C(=O)N[C@H](C(=O)NC(C)C(O)CC(=O)NC(C(=O)NC(OC1OC(C)C(N)C(O)C1O)C(O)c1nc(-c2nc(C(=O)NCCCCN)cs2)cs1)[C@H](C)O)C(OC1OC(CO)C(O)C(O)C1OC1OC(CO)C(O)C(OC(N)=O)C1O)c1cnc[nH]1.Cl.Cl.Cl.Cl,,MIC,,,PZA-R,0.1 µg/mL
[N-]=[N+]=NC(CBr)c1cn(COC(CO)CO)c(=O)[nH]c1=O,,EC50,,,H37Ra,>100 µg/mL
CCC(C)c1c(N)o[nH]c1=O,12.5 µg/mL,inhibition,BACTEC,,H37Rv,16%
CC1(C)CCc2nc(-c3ccc4ccccc4c3)ccc2C1=O,,MIC,,,H37Rv,1.56 µg/mL
O=c1[nH]c(=O)n(COCCO)cc1Br,,EC50,,,H37Ra,>100 µg/mL
CN1CCN(c2cc3c(cc2F)c(=O)c(C(=O)O)cn3-c2ccc(F)cc2)CC1,,MIC90,,,64 strains,4 µg/mL
Cc1ccc(NC(=O)CCC(=O)O)cc1[N+](=O)[O-],12.5 µg/mL,inhibition,BACTEC,,H37Rv,0%
CCCc1cc(=O)oc2c3c(cc(OC(C)C)c12)O[C@H](C)[C@H](C)[C@@H]3O,,MIC,,,H37Ra,16 µg/mL
O=C1c2ccccc2C(=O)c2c1cccc2-n1nnc2cc(Cl)c(Cl)cc21,,MIC bound,BACTEC,,H37Rv,>12.5 µg/mL
COc1cc(/C=N/N=C(\N)c2ccncc2)cc(OC)c1,,MIC,,,H37Rv,256 µg/mL
Cc1ccc2c(c1)c(=O)c1c(NCCN(C)C)ccc3nnn2c31,,MIC bound,BACTEC,,H37Rv,≤12.5 µg/mL
Clc1ccc(-n2ncc(C(c3ccccc3)n3ccnc3)c2-c2ccccc2Cl)c(Cl)c1,,MIC50,,,ATCC 35828 (pyrazinamide-resistant),15.6 µM
Nc1nc(N)c2nc3c(nc2n1)C(=O)N(c1ccc(C(=O)O)cc1)C3,,MIC bound,BACTEC,,H37Rv,>12.8 µg/mL
Fc1ccccc1-c1c(C(c2ccccc2)n2ccnc2)cnn1-c1ccccc1F,,MIC90,,,ATCC 35828 (pyrazinamide-resistant),≥100 µM

Again, the opening 6 rows:

compound	dose	read-out	method	changes	strain or isolate	result
CC1CC(C)(C)NCCNC(C)CC(C)(C)NCCN1	6.25 µg/mL	inhibition	resazurin		H37Rv	-2%
Cc1nc2scc(-c3ccco3)c2c(=O)n1NC(=O)c1cccs1		MIC			CNCTC MY331/88	106 µM
CCOC(=O)c1ccc(-c2ccc(Br)cc2)nc1C		MIC			H37Rv	25 µg/mL
CO[C@H]1/C=C/O[C@@]2(C)Oc3c(C)c(O)c4c(O)c(c(/C=N/N5CCN(C)CC5)c(O)c4c3C2=O)NC(=O)/C(C)=C\C=C\[C@H](C)[C@H](O)[C@@H](C)[C@@H](O)[C@@H](C)[C@H](OC(C)=O)[C@@H]1C		MIC			H37Rv	0.015 µg/mL
CC1COc2c(N3CCN(C)CC3)c(F)cc3c(=O)c(C(=O)O)cn1c23		MIC90			ATCC 27294	3 µM
COc1cccc(/C=N/N=C(\N)c2ccncc2)c1OC		MIC			1481	>256 µg/mL